# Measured values published in patent US20170224664A1, “POWDER ORAL SUSPENSION FORMULATIONS OF ANTIBACTERIAL AGENTS” (Cempra Pharmaceuticals, Inc., priority 2014, published 2017).
# Test system: human test subjects
# Test: Threshold bitterness
# Format: in vivo
# Settings: 5-60 μg/mL in pH 6.0 phosphate buffer, 10 mL in mouth for 10 seconds
compound,measurement,value
"CC[C@H]1OC(=O)[C@@](C)(F)C(=O)[C@H](C)[C@@H](O[C@@H]2O[C@H](C)C[C@H](N(C)C)[C@H]2O)[C@](C)(OC)C[C@@H](C)C(=O)[C@H](C)[C@H]2N(CCCCn3cc(-c4cccc(N)c4)nn3)C(=O)O[C@]12C [SOL, solithromycin]",threshold or breakthrough bitterness relative to azithromycin,double that of azithromycin
same,threshold or breakthrough bitterness relative to clarithromycin,half that of clarithromycin
